Literature values in publication PMC11793105, “A kalihinol analog disrupts apicoplast function and vesicular trafficking in P. falciparum malaria” (Science (New York, N.Y.), 2024).
“And” between values parts separate entries of the source, which are not always exact repeats. Equal entries are not always repeated.

Test system: Endoplasmin (PF3D7_1222300)
Settings: pyrimethamine 100uM, replicates r1 and r2; ref Dziekan et al 2020; cited from earlier work

Compound: CCc1nc(N)nc(N)c1-c1ccc(Cl)cc1 [Pyr, pyrimethamine]
- Tm of Endoplasmin: 48.65 °C and 48.42 °C
